Source: ChEMBL document CHEMBL3817767, “OpenGrowth: An Automated and Rational Algorithm for Finding New Protein Ligands” (J Med Chem, 2016)

Biological target: Protease (Human immunodeficiency virus 1, UniProt Q9YQ12, I47A)
Assay: Binding affinity to HIV1 protease I47A mutant

## Cc1cccc(C)c1OCC(=O)N[C@@H](Cc1ccccc1)[C@@H](O)C[C@H](Cc1ccccc1)NC(=O)[C@H](C(C)C)N1CCCNC1=O [LOPINAVIR]
  Kd: 1.1 nM
